Compound potency records, mixed from different reports. Data source: NIAID ChemDB in PubChem.

Shared fields: whole-cell or culture tests; organism: HIV-1; method: p24; measure: EC50

An empty or dashed field is not shown. ECn: concentration that inhibits the pathogen or its effect by n%. Rows are shuffled and stem from different studies.

smiles,mutations,cell line,strain or isolate,value
CC1(C)CC(NC(=O)C(=O)Nc2ccc(Cl)cc2)CC(C)(C)N1,-,MT-2,V32,5.28 µM
COc1ccc2sc3c(c2c1)N(Cc1ccc([N+](=O)[O-])cc1)CCNC3=O,-,OM-10.1,-,0.02 µM
COc1c(OCc2ccccc2)c(OCc2ccccc2)cc(CO)c1-c1c(CO)cc(OCc2ccccc2)c(OCc2ccccc2)c1OC,-,H9,IIIB,>30 µg/mL
COc1ccc(S(=O)(=O)N(CC(C)C)C[C@@H](O)CCN(CC2CCCC2)S(=O)(=O)c2nc3ccccc3o2)cc1,-,CEM,IIIB,<1 µM
COc1cccc(CN2CCNC(=O)C3=C2c2cc(OC)ccc2CC3)c1,-,OM-10.1,-,0.11 µM
NS(=O)(=O)c1ccc(NC(=O)c2ccccc2SSc2ccccc2C(=O)Nc2ccc(S(N)(=O)=O)cc2)cc1,-,Monocytes/macrophages,ADA,5.8 µM
Cc1cc(SCc2cnc3c(c2)C(=O)Nc2c(C)cc(Cl)nc2N3C2CC2)cc(C)n1,-,C8166,WILD TYPE,0.0022 µM
O=C(O[C@H]1CCOC1)N(CCc1ccccc1)C[C@H](O)CN(CC1CCCC1)S(=O)(=O)c1ccc(O)cc1,-,CEM,IIIB,<0.1 µM
COc1c(OCc2ccccc2)c(OCc2ccccc2)cc(CO)c1-c1c(CO)c(Br)c(OCc2ccccc2)c(OCc2ccccc2)c1OC,-,H9,IIIB,>100 µg/mL
Cc1ccc(-n2nnnc2SCC(=O)Nc2ccccc2Cl)cc1,-,MT-4,-,<10 µM
OCCC#Cc1nc(-c2ccc(F)cc2)c(-c2ccncc2)n1CCCc1ccccc1,-,Mono Mac 6,BaL,<1 µM
O=C(O)[C@H]1O[C@@H](Oc2cc3oc(-c4ccc(O)cc4)cc(=O)c3c(O)c2O)[C@H](O)[C@@H](O)[C@@H]1O,-,MT-2,74V,253 µM
CC(C)CN(CC(O)CCN1C[C@H]2CCCC[C@H]2C[C@H]1C(=O)NC(C)(C)C)S(=O)(=O)c1ccccc1,-,CEM,IIIB,<1 µM
NC(=O)C[C@H](NC(=O)CNC1c2ccc3cc4c5c6c(cc7ccc8cc9cc1c1c9c9c8c7c6c9c6c1c2c3c56)C4)C(=O)O,-,MT-4,-,105 µM
O=C1NCCN(Cc2ccccc2)c2c1sc1ccc(Cl)cc21,-,OM-10.1,-,<0.002 µM
Nc1nc(NC2CC2)c2ncn([C@H]3C=C[C@@H](CO)C3)c2n1,-,PBMC,NL4-3 WT,<2.5 µM
Cc1ccc(-c2ccc3c(c2)C=C(C(=O)Nc2ccc(C[N+](C)(C)C4CCOCC4)cc2)CCC3)cc1,-,PBMC,TB3 CLADE C,<1 µM
COc1ccc2oc3c(c2c1)N(CC(C)C)CCN(C)C3=O,-,OM-10.1,-,0.09 µM
Cc1cn([C@H]2C=C[C@@H](CO)O2)c(=O)[nH]c1=O,RT-M184V,MT-4,XM-M184V,<0.3 µM
CN(C)c1ccc(-n2nnnc2SCC(=O)Nc2ccccc2[N+](=O)[O-])c2ccccc12,-,MT-4,-,<10 µM
Nc1nc(=O)n([C@@H]2CC[C@H](CO)O2)cc1F,-,C8166,RF,0.026 µM
NCCSSCCN,-,CEM-SS,-,>100 µM
CC(=O)NS(=O)(=O)c1ccc(NC(=O)c2ccccc2SSc2ccccc2C(=O)Nc2ccc(S(=O)(=O)NC(C)=O)cc2)cc1,-,Monocytes/macrophages,ADA,9.4 µM
O=C(c1ccccc1)N(CCc1ccccc1)C[C@H](O)CN(CC1CCCC1)S(=O)(=O)C1CCCC1,-,CEM,IIIB,<1 µM
NCC(=O)N1CCC[C@H]1C(=O)NCC(N)=O,-,H9,IIIB,16 µM
COc1ccc(S(=O)(=O)N(CC2CCCC2)C[C@@H](O)CN(CCc2ccccc2)C(=O)OCc2ccccc2)cc1,-,CEM,IIIB,<1 µM
CCOCn1c(Cc2ccccc2)c(C(C)C)c(=O)[nH]c1=O,-,JM,GB8,0.0016 µM
CCN1c2ncc(CSc3cc(C)nc(C)c3)cc2C(=O)Nc2c(C)cc(Cl)nc21,-,C8166,WILD TYPE,0.0012 µM
COc1c(C)c2c(c(O)c1C/C=C(\C)CCC(=O)O)C(=O)OC2,-,PBMC,IIIB,0.11 µM
CCO[C@@H]1Cc2cc(C(F)(F)F)ccc2C1N1CCN(C2(C)CCN(C(=O)c3c(C)ncnc3C)CC2)C[C@@H]1C,-,PBMC,IIIB,>1 µM
O=C(CSc1nnnn1-c1cccc2cnccc12)Nc1ccccc1Cl,-,MT-4,-,<10 µM
NCC(=O)O,-,H9,SF2,>100 µM
COc1ccc2ccc3c(c2c1)OC[C@H](C)NC3=O,-,OM-10.1,-,0.15 µM
Cc1cc(C)c(-n2nnnc2SCC(=O)Nc2ccccc2N)c(C)c1,-,MT-4,-,<10 µM
Nc1ccn([C@@H]2CC[C@H](CO)O2)c(=O)n1,-,C8166,RF,23.6 µM
C=CCN1CCN(CC(=C)C)c2c(sc3ccc(OC)cc23)C1=O,-,OM-10.1,-,0.8 µM
CCN(CC)C(=S)S,-,Macrophage + Monocytes/macrophages,ADA,>100 µM
COc1ccc2sc3c(c2c1)SCC/C3=N\OC(C)=O,-,OM-10.1,-,0.4 µM
O=C(O)CCCCCNC1c2ccc3cc4c5c6c(cc7ccc8cc9cc1c1c9c9c8c7c6c9c6c1c2c3c56)C4,-,PBMC,-,0.49 µM
COc1ccc(CN2CCNC(=O)C3=C2c2cc(OC)ccc2CC3)cc1,-,OM-10.1,-,0.4 µM
Cc1cc(C)c(-n2nnnc2SCC(=O)Nc2ccc(Br)cc2F)c(C)c1,-,MT-4,-,<10 µM

4 of the rows above, restated:

smiles | mutations | cell line | strain or isolate | value
O=C(O)[C@H]1O[C@@H](Oc2cc3oc(-c4ccc(O)cc4)cc(=O)c3c(O)c2O)[C@H](O)[C@@H](O)[C@@H]1O | - | MT-2 | 74V | 253 µM
CCN(CC)C(=S)S | - | Macrophage + Monocytes/macrophages | ADA | >100 µM
O=C1NCCN(Cc2ccccc2)c2c1sc1ccc(Cl)cc21 | - | OM-10.1 | - | <0.002 µM
COc1ccc2ccc3c(c2c1)OC[C@H](C)NC3=O | - | OM-10.1 | - | 0.15 µM